Pooled drug test results. Numbers come from NIAID ChemDB, via PubChem.

Common to all: target-level tests; species: HIV-1; target: Protease

ICn is the concentration giving n% inhibition.

structure	mutations	read by	endpoint	strain	value
CC(C)[C@H](NC(=O)[C@H](C)NC(=O)OCc1ccccc1)C(=O)N[C@@H](Cc1ccccc1)C[C@H](O)[C@H](Cc1ccccc1)NC(=O)[C@@H](NC(=O)[C@H](C)NC(=O)OCc1ccccc1)C(C)C	-	fluorescence	IC50	-	0.0133 µM
CCCCNC(=O)[C@H](C)C[C@H](O)[C@H](CC1CCCCC1)NC(=O)[C@@H](NC(=O)[C@@H](NC(=O)OC(C)(C)C)[C@@H](C)O)[C@@H](C)CC	-	-	Ki	-	0.019 µM
CC(=O)C(Cc1c(O)c2cccc(C)c2oc1=O)c1ccc(Cl)cc1	-	-	IC50	-	25 µM
CCCCCCCCCCCCCCCC(=O)N[C@@H](CO)C(=O)N[C@H](C(=O)N[C@@H](CCC(=O)O)C(=O)N[C@@H](CC(C)C)C(=O)O)c1ccc(OC(=O)c2ccccc2)cc1	-	fluorescence	IC50	-	0.4 µM
CC(C)[C@H](NC(=O)[C@H](C)NC(=O)OCc1ccccc1)C(=O)NC(Cc1ccccc1)C(=O)C(=O)N1CCC[C@H]1C(=O)NC(C)(C)C	-	fluorescence	IC50	-	0.0078 µM
O=C(N[C@@H](Cc1ccccc1)[C@H](Cc1ccccc1)n1cc(CN2CCC(Cc3ccccc3)CC2)nn1)OC1CCCC1	-	fluorescence	IC50	-	<5 µM
CC(C)[C@H](NC(=O)N(C)Cc1ccccn1)C(=O)N[C@@H](Cc1ccccc1)[C@@H](O)[C@H](O)[C@H](Cc1ccccc1)NC(=O)[C@@H](NC(=O)N(C)Cc1ccccn1)C(C)C	-	fluorescence	IC50	-	0.0017 µM
CC(C)[C@H](NC(=O)OCc1ccccc1)C(=O)N[C@@H](CSC1CCCCC1)[C@@H](O)[C@H](O)[C@H](CSC1CCCCC1)NC(=O)[C@@H](NC(=O)OCc1ccccc1)C(C)C	-	fluorescence	IC50	-	<0.1 µM
O=C(N[C@@H](Cc1ccccc1)[C@H](Cc1ccccc1)n1cc(CN2CCN(c3cccc(Cl)c3)CC2)nn1)OC1CCCC1	-	fluorescence	IC50	-	<5 µM
CC(C)C[C@H](NC(=O)[C@H](CCC(=O)O)NC(=O)[C@H](Cc1ccc(O)cc1)NC(=O)[C@H](CO)NC(=O)[C@@H](N)Cc1ccccc1)C(=O)O	-	fluorescence	IC50	-	0.7 µM
CC(=O)C(Cc1c(O)c2ccc(C)cc2oc1=O)c1ccccc1	-	-	IC50	-	>200 µM
O=C(N[C@@H](Cc1ccccc1)[C@H](Cc1ccccc1)n1cc(CN2CCN(c3ccccc3Cl)CC2)nn1)OC1CCCC1	-	fluorescence	IC50	-	<5 µM
NC(=O)C[C@H](NC(=O)OCc1ccccc1)C(=O)N[C@@H](Cc1ccccc1)[C@H](O)C(=O)N1CCC[C@H]1C(=O)NC1CCCCC1	-	-	IC50	-	0.572 µM
CCCCCCCCCCCCCCCC(=O)N[C@@H](Cc1ccc(O)cc1)C(=O)N[C@@H](CCC(=O)O)C(=O)N[C@@H](Cc1ccc(O)cc1)C(=O)O	-	fluorescence	Ki	-	2 µM
CC(C)[C@H](NC(=O)c1ccc2ccccc2n1)C(=O)N[C@H](CCN1CC[C@@H](SCc2ccccn2)C[C@H]1C(=O)NC(C)(C)C)Cc1ccccc1	-	-	IC50	-	≤0.0019 µM
CC[C@H](C)[C@H](NC(=O)[C@@H]1CCCN1C[C@@H](O)[C@H](Cc1ccccc1)NC(=O)[C@H](CC(N)=O)NC(=O)[C@H](CC(C)C)NC(C)=O)C(=O)N[C@H](C(N)=O)C(C)C	-	fluorescence	Ki	-	0.018 µM
CCCCNC(=O)[C@H](C)C[C@H](O)[C@H](CC1CCCCC1)NC(=O)[C@@H](NC(=O)[C@H](CCC(N)=O)NC(=O)OC(C)(C)C)C(C)(C)C	-	-	Ki	-	0.0563 µM
CC(C)(C)NC(=O)[C@@H]1CCCCN1C(=O)[C@@H](O)[C@H](Cc1ccccc1)NC(=O)[C@H](CC(N)=O)NC(=O)OCc1ccccc1	-	HPLC	IC50	-	0.182 µM
COC(=O)N[C@H](C(=O)N[C@@H](Cc1ccccc1)[C@@H](O)CN(Cc1ccc(-c2ccccn2)cc1)NC(=O)[C@@H](NC(=O)OC)C(C)(C)C)C(C)(C)C	-	absorbance	Ki	HXB2	0.000044 µM
Cc1cccc(C)c1OCC(=O)N[C@H](CCN1CC[C@@H](OCc2cccnc2)C[C@H]1C(=O)NC(C)(C)C)Cc1ccccc1	-	-	IC50	-	≤0.007 µM
CC(C)CN(C[C@@H](O)[C@H](Cc1ccccc1)NC(=O)[C@H](CC(N)=O)NC(=O)c1ccc2ccccc2n1)C(=O)NC(C)(C)C	-	HPLC	IC50	-	0.0023 µM
O=C(N[C@@H](Cc1ccccc1)[C@H](Cc1ccccc1)n1cc(CN2CCC(O)(c3ccc(Cl)c(C(F)(F)F)c3)CC2)nn1)OC1CCCC1	-	fluorescence	IC50	-	~5 µM
CC(C)(C)NC(=O)[C@H]1N(C(=O)[C@@H](O)[C@H](Cc2ccccc2)NC(=O)[C@H](CC(N)=O)NC(=O)COc2cccc3cnccc23)CSC1(C)C	-	HPLC	Ki	-	0.000349 µM
Cc1ccc(Cl)cc1N1CCN(Cc2cn([C@@H](Cc3ccccc3)[C@H](Cc3ccccc3)NC(=O)CC3CCCC3)nn2)CC1	-	fluorescence	IC50	-	>5 µM
CC(=O)N[C@H](C(=O)N[C@H](C(=O)NC(Cc1ccccc1)C(O)C(O)C(Cc1ccccc1)NCc1ccccc1)C(C)C)C(C)C	-	fluorescence	IC50	-	<270 µM
CC(C)[C@H](NC(=O)COc1cccc(N(C)C)c1)C(=O)N[C@@H](Cc1ccccc1)[C@H](O)C(=O)N1CSC(C)(C)[C@H]1C(=O)NC(C)(C)C	-	HPLC	Ki	-	0.000318 µM
CC(C)C[C@H](NC(=O)CCCCCCCCCC(=O)N[C@@H](CC(N)=O)C(=O)N[C@@H](Cc1ccccc1)C(=O)O)C(=O)N[C@@H](Cc1ccccc1)C(N)=O	-	fluorescence	IC50	-	101 µM
CCCCNC(=O)[C@H](C)C[C@H](O)[C@H](CC1CCCCC1)NC(=O)[C@@H](NC(=O)[C@H](CCCCN)NC(=O)OC(C)(C)C)[C@@H](C)CC	-	-	Ki	-	0.7 µM
CC(C)[C@H](NC(=O)NCc1ccccc1)C(=O)N[C@@H](Cc1ccccc1)C(O)[C@H](Cc1ccccc1)NC(=O)[C@@H](NC(=O)NCc1ccccc1)C(C)C	-	fluorescence	IC50	-	<0.005 µM
O=c1oc2ccccc2c(O)c1CCCSc1ccccc1	-	-	IC50	-	0.862 µM
C[C@H](NC(=O)OCc1ccccc1)C(=O)N[C@@H](CC(N)=O)C(=O)N[C@@H](Cc1ccccc1)[C@H](O)CN1C[C@H]2CCCC[C@H]2C[C@H]1C(=O)NC(C)(C)C	-	fluorescence	Ki	-	0.0113 µM
CCCCNC(=O)[C@H](C)C[C@H](O)[C@H](CC1CCCCC1)NC(=O)[C@@H](NC(=O)[C@@H](NC(=O)OC(C)(C)C)[C@@H](C)O)C(C)C	-	-	Ki	-	0.077 µM
CC[C@H](C)[C@H](NC(=O)[C@H](Cc1ccccc1)NC[C@@H](O)[C@H](Cc1ccccc1)NC(=O)[C@@H](NC(=O)[C@H](CC(C)C)NC(C)=O)C(C)C)C(=O)N[C@H](C(N)=O)C(C)C	-	fluorescence	Ki	-	0.0015 µM
CCCCCCCCCCCCCCCC(=O)N[C@@H](Cc1ccc(O)cc1)C(=O)N[C@@H](CCC(=O)O)C(=O)N[C@H](C(=O)O)c1ccc(OC(=O)c2ccccc2)cc1	-	fluorescence	IC50	-	0.05 µM
CC(C)(C)NC(=O)[C@@H]1CSCN1C(=O)[C@@H](O)[C@H](Cc1ccccc1)NC(=O)[C@H](CS(C)(=O)=O)NC(=O)COc1cccc2ccccc12	-	-	IC50	-	0.004 µM
Cc1ccc(C(C)(C)C)c(SC2=C(O)CC(CCc3ccc(O)cc3)(C3CCCCC3)OC2=O)c1	-	HPLC	IC50	-	0.03311 µM
CC(=O)C(Cc1c(O)c2cccc(-c3ccccc3)c2oc1=O)c1ccccc1	-	-	IC50	-	15 µM
CC(C)(C)NC(=O)[C@@H]1CSCN1C(=O)[C@@H](O)[C@H](Cc1ccccc1)NC(=O)[C@H](CC(N)=O)NC(=O)OCc1ccccc1	-	HPLC	IC50	-	0.45 µM
CC(=O)CC(c1ccccc1)c1c(O)c2cc(C)cc(C)c2oc1=O	-	-	IC50	-	>200 µM
CC(C)NC(=O)[C@@H]1CCCN1C(=O)[C@@H](O)[C@H](Cc1ccccc1)NC(=O)[C@H](CC(N)=O)NC(=O)OCc1ccccc1	-	-	IC50	-	0.32 µM
CC[C@H](C)[C@@H]1NC(=O)[C@@H](NC[C@H](O)[C@H](Cc2ccccc2)NC(=O)[C@@H](NC(=O)[C@H](CC(C)C)NC(C)=O)C(C)C)Cc2ccc(cc2)OCCCNC1=O	-	fluorescence	Ki	-	0.0006 µM
CCCCCCCCCCCCCCCC(=O)N[C@@H](Cc1ccc(O)cc1)C(=O)N[C@@H](CCC(=O)O)C(=O)N[C@@H](Cc1ccc(Oc2ccc(O)cc2)cc1)C(=O)O	-	fluorescence	IC50	-	~0.05 µM
CC(C)[C@H](NC(=O)[C@H](C)NC(=O)OCc1ccccc1)C(=O)N[C@@H](Cc1ccccc1)[C@H](O)CN1C[C@H]2CCCC[C@H]2C[C@H]1C(=O)NC(C)(C)C	-	fluorescence	IC50	-	0.004 µM
CSC[C@H](NC(=O)COc1cccc2cnccc12)C(=O)N[C@@H](Cc1ccccc1)[C@H](O)C(=O)N1CSC(C)(C)[C@H]1C(=O)NC(C)(C)C	-	-	IC50	-	0.0023 µM
CC(C)[C@H](NC(=O)OCc1cccnc1)C(=O)N[C@@H](Cc1ccccc1)[C@H](O)[C@H](O)[C@H](Cc1ccccc1)NC(=O)[C@@H](NC(=O)OCc1cccnc1)C(C)C	-	fluorescence	IC50	-	<0.001 µM
CC(C)C[C@H](NC(=O)[C@@H](NC(=O)[C@H](C)NC(=O)OCc1ccccc1)C(C)C)[C@@H](O)[C@H](O)[C@H](CC(C)C)NC(=O)[C@@H](NC(=O)[C@H](C)NC(=O)OCc1ccccc1)C(C)C	-	fluorescence	Ki	-	0.0065 µM
CCC(C)[C@H](NC(=O)CCCCCCCCCCCCCCC(=O)N[C@@H](CC(N)=O)C(=O)N[C@@H](Cc1ccccc1)C(=O)O)C(=O)N[C@@H](Cc1ccc2ccccc2c1)C(N)=O	-	-	Ki	-	0.127 µM
CC(C)(C)NC(=O)[C@@H]1CCCN1C(=O)C(=O)[C@@H](Cc1ccccc1)NC(=O)[C@H](CC(N)=O)NC(=O)OCc1ccccc1	-	HPLC	IC50	-	0.3 µM
CC[C@H](C)[C@H](NC(=O)[C@@H]1CCCN1C[C@H](O)[C@H](Cc1ccccc1)NC(=O)[C@H](CC(N)=O)NC(=O)[C@H](CC(C)C)NC(=O)[C@H](CO)NC(C)=O)C(=O)N[C@H](C(=O)OC)C(C)C	-	fluorescence	Ki	-	0.001 µM
CO[C@@H](Cc1ccccc1)C(F)(F)C(=O)[C@H](Cc1ccccc1)NC(=O)[C@@H](NC(=O)OCc1ccccc1)C(C)C	-	fluorescence	IC50	-	>0.01 µM
O=C(N[C@@H](Cc1ccccc1)[C@H](Cc1ccccc1)n1cc(CN2CCC(c3ccccc3)CC2)nn1)OC1CCCC1	-	fluorescence	IC50	-	<5 µM
CC(=O)CC(c1ccc(Cl)cc1)c1c(O)c2cc(C)ccc2oc1=O	-	-	IC50	-	35 µM
CCCCCCCCCCCCCCCC(=O)N[C@@H](Cc1ccc2ccccc2c1)C(=O)N[C@@H](CCC(=O)O)C(=O)N[C@@H](CC(C)C)C(=O)O	-	fluorescence	IC50	-	0.2 µM
CC(C)[C@H](NC(=O)N(C)Cc1ccccn1)C(=O)N[C@@H](Cc1ccccc1)[C@H](O)[C@H](O)[C@H](Cc1ccccc1)NC(=O)[C@@H](NC(=O)N(C)Cc1ccccn1)C(C)C	PR-V82A	HPLC	IC50	-	0.0061 µM
CC(C)[C@H](NC(=O)CCC1CCCCN1)C(=O)N[C@@H](Cc1ccccc1)C(O)[C@H](Cc1ccccc1)NC(=O)[C@@H](NC(=O)CCC1CCCCN1)C(C)C	-	fluorescence	IC50	-	~0.01 µM
Cc1cccc(C)c1OCC(=O)N[C@H](CCN1CC[C@@H](SCc2cccnc2)C[C@H]1C(=O)NC(C)(C)C)Cc1ccccc1	-	-	IC50	-	≤0.0036 µM
CC[C@H](C)[C@H](NC(=O)[C@H](Cc1ccccc1)NC[C@H](O)[C@H](Cc1ccccc1)NC(=O)[C@@H](NC(=O)[C@H](CC(C)C)NC(C)=O)C(C)C)C(=O)N[C@H](C(N)=O)C(C)C	-	fluorescence	Ki	-	0.0015 µM
CC(=O)C(Cc1c(O)c2cc(C)ccc2oc1=O)c1ccccc1	-	-	IC50	-	160 µM
CC(C)[C@H](NC(=O)[C@H](C)NC(=O)OCc1ccccc1)C(=O)N[C@@H](Cc1ccccc1)[C@H](O)C(=O)N1CCC[C@H]1C(=O)NC(C)(C)C	-	fluorescence	IC50	-	0.0103 µM
CC(C)(C)NC(=O)[C@@H]1CCCN1C(=O)[C@@H](O)[C@H](Cc1ccccc1)NC(=O)[C@H](CC(N)=O)NC(=O)c1ccc2ccccc2n1	-	-	IC50	-	0.02 µM

Again, the opening 6 rows:

structure	mutations	read by	endpoint	strain	value
CC(C)[C@H](NC(=O)[C@H](C)NC(=O)OCc1ccccc1)C(=O)N[C@@H](Cc1ccccc1)C[C@H](O)[C@H](Cc1ccccc1)NC(=O)[C@@H](NC(=O)[C@H](C)NC(=O)OCc1ccccc1)C(C)C	-	fluorescence	IC50	-	0.0133 µM
CCCCNC(=O)[C@H](C)C[C@H](O)[C@H](CC1CCCCC1)NC(=O)[C@@H](NC(=O)[C@@H](NC(=O)OC(C)(C)C)[C@@H](C)O)[C@@H](C)CC	-	-	Ki	-	0.019 µM
CC(=O)C(Cc1c(O)c2cccc(C)c2oc1=O)c1ccc(Cl)cc1	-	-	IC50	-	25 µM
CCCCCCCCCCCCCCCC(=O)N[C@@H](CO)C(=O)N[C@H](C(=O)N[C@@H](CCC(=O)O)C(=O)N[C@@H](CC(C)C)C(=O)O)c1ccc(OC(=O)c2ccccc2)cc1	-	fluorescence	IC50	-	0.4 µM
CC(C)[C@H](NC(=O)[C@H](C)NC(=O)OCc1ccccc1)C(=O)NC(Cc1ccccc1)C(=O)C(=O)N1CCC[C@H]1C(=O)NC(C)(C)C	-	fluorescence	IC50	-	0.0078 µM
O=C(N[C@@H](Cc1ccccc1)[C@H](Cc1ccccc1)n1cc(CN2CCC(Cc3ccccc3)CC2)nn1)OC1CCCC1	-	fluorescence	IC50	-	<5 µM

Conditions beyond the fields shown may differ between rows. An empty or dashed field is not shown.